Anti-infective test results gathered from many reports (values: NIAID ChemDB through PubChem).

All rows: growth or infection tests

Neighbouring rows are from separate reports. Blank or dashed fields: not listed here. MIC50, MIC90 and the like: level of inhibition, or share of isolates inhibited. Two numbers with a dash give a range or band. Inhibition is in % at the dose shown (toxicity tests: loss of growth or viability).

compound	method	strain	conditions	endpoint	dose	species	result
Cc1ccc2nc(C)c(C(=O)NCc3ccc(-c4ccccc4)cc3)n2c1	fluorescence	-	-	MIC50	-	Mycobacterium ulcerans	0.001–0.01 µg/mL
CCCCCCCCCCCCC(CCCCCCCCCCCC)NC(=O)NC(CCC(=O)O)(CCC(=O)O)CCC(=O)O	-	AAy-P-1	-	MIC	-	Mycobacterium abscessus	72 µg/mL
CO[C@H]1/C=C/O[C@@]2(C)Oc3c(C)c(O)c4c(O)c(c(/C=N/N5CCN(C6CCCC6)CC5)c(O)c4c3C2=O)NC(=O)/C(C)=C\C=C\[C@H](C)[C@H](O)[C@@H](C)[C@@H](O)[C@@H](C)[C@H](OC(C)=O)[C@@H]1C	-	953	-	MIC	-	Mycobacterium avium intracellulare	1 µg/mL
Nc1ccc(S(=O)(=O)c2ccc(N)cc2)cc1	-	DW27	-	MIC	-	Mycobacterium avium complex	64 µg/mL
Fc1cc(Br)ccc1Nc1nnc(-c2ccncc2)o1	broth dilution	My 235/80	7 d	MIC100	-	Mycobacterium kansasii	>125 µM
COc1ccc2oc(=O)n(-c3ccc(Br)cc3)c(=S)c2c1	-	My 235/80	21 d	MIC	-	Mycobacterium kansasii	32 µM
CCCCCCNNC(=O)O[C@H]1[C@H](O[C@@H]2[C@@H](C)[C@H](O[C@H]3C[C@@](C)(OC)[C@@H](OC(C)=O)[C@H](C)O3)[C@@H](C)C(=O)O[C@H](CC)[C@@](C)(O)[C@H](O)[C@@H](C)/C(=N/OCCCC3CCCCC3)[C@H](C)CC2(C)O)O[C@H](C)C[C@@H]1N(C)C	-	20066 (clarithromycin-susceptible)	-	MIC	-	Mycobacterium avium intracellulare	1.56 µg/mL
Fc1ccc2oc(=S)n(-c3ccccc3)c(=S)c2c1	-	6509/96	21 d	MIC	-	Mycobacterium kansasii	2 µM
Cc1cc2nc(CCNC(=O)c3c(C)nc4ccc(Cl)cn34)[nH]c2cc1C	fluorescence	-	-	MIC50	-	Mycobacterium ulcerans	>10 µg/mL
O=c1oc2ccc(F)cc2c(=S)n1-c1ccc(C(F)(F)F)cc1	-	My 235/80	14 d	MIC	-	Mycobacterium kansasii	8 µM
CCCCCCCCCCN(CCCCCCCCCC)C(=O)NC(CCC(=O)O)(CCC(=O)O)CCC(=O)O	-	AAy-P-1	-	MIC	-	Mycobacterium abscessus	72 µg/mL
CC[C@H]1OC(=O)[C@H](C)[C@@H](O[C@H]2C[C@@](C)(OC)[C@@H](O)[C@H](C)O2)[C@H](C)[C@@H](O[C@@H]2O[C@H](C)C[C@H](N(C)C)[C@H]2O)[C@](C)(OC)C[C@@H](C)C(=O)[C@H](C)[C@@H](O)[C@]1(C)O	-	N-945 (HIV+)	-	MIC	-	Mycobacterium avium complex	1 µg/mL
Cc1ccn2c(C(=O)NCc3ccc(C4CCN(c5ccc(OC(C)C)cc5)CC4)cc3F)c(C)nc2c1	fluorescence	-	-	inhibition	0.94 µM	Mycobacterium avium	85%
CC[C@H]1OC(=O)[C@H](C)[C@@H](OC2C[C@@](C)(OC)[C@@H](OC(=O)c3ccccc3)[C@H](C)O2)[C@H](C)[C@@H](O[C@@H]2O[C@H](C)C[C@H](N(C)C)[C@H]2O)C(C)(O)C[C@@H](C)/C(=N\OCCCOc2ccccc2)[C@H](C)[C@@H](O)[C@]1(C)O	-	20066 (clarithromycin-susceptible)	-	MIC	-	Mycobacterium avium intracellulare	1.56 µg/mL
CCCCCCCN(CCCCCCC)C(=O)NC(CCC(=O)O)(CCC(=O)O)CCC(=O)O	-	EO-P-1	-	MIC	-	Mycobacterium chelonae	54 µg/mL
CC1(C)N=C(N)N=C(N)N1OCCCOc1cc(Cl)c(Cl)cc1Cl	-	TDHOO5A	-	MIC	-	Mycobacterium avium complex	1 µg/mL
CC[C@H]1OC(=O)[C@H](C)[C@@H](O[C@H]2C[C@@](C)(OC)[C@@H](OC(C)=O)[C@H](C)O2)[C@H](C)[C@@H](O[C@@H]2O[C@H](C)C[C@H](N(C)C)[C@H]2O)C(C)(O)C[C@@H](C)/C(=N\OC)[C@H](C)[C@@H](O)[C@]1(C)O	-	20066 (clarithromycin-susceptible)	-	MIC	-	Mycobacterium avium intracellulare	12.5 µg/mL
O=C(NNC(=O)c1ccncc1)Nc1ccc(Br)c(F)c1	broth dilution	My 235/80	21 d	MIC100	-	Mycobacterium kansasii	>125 µM
O=c1oc2ccc(F)cc2c(=S)n1-c1ccc(Cl)c(Cl)c1	-	My 235/80	14 d	MIC	-	Mycobacterium kansasii	2 µM
CCCCCCCCCCCCCCCCCCCCCOC(=O)NC(C)(CCC(=O)O)CCC(=O)O	-	AAy-P-1	-	MIC	-	Mycobacterium abscessus	72 µg/mL
Cc1ccc(NC(=O)NNC(=O)c2ccncc2)cc1	broth dilution	My 6509/96	21 d	MIC100	-	Mycobacterium kansasii	125 µM
C[C@@H]1CN(c2c(F)c(N)c3c(=O)c(C(=O)O)cn(C4CC4)c3c2F)C[C@H](C)N1	-	N-259 (HIV-)	-	MIC	-	Mycobacterium avium complex	0.5 µg/mL
O=C(NCCc1ccc(O)cc1)c1c(Cl)nc2ccccn12	fluorescence	-	-	MIC50	-	Mycobacterium ulcerans	>10 µg/mL
CO[C@@]1(NC(=O)CCCC(N)C(=O)O)C(=O)N2C(C(=O)O)=C(COC(C)=O)CSC21	-	1045	-	MIC	-	Mycobacterium fortuitum	>100 µg/mL
Cc1cn2c(C(=O)NCc3ccc(C4CCN(c5ccc(OC(F)(F)F)cc5)CC4)c(F)c3)c(C)nc2s1	fluorescence	-	-	inhibition	0.33 µM	Mycobacterium avium	85%
CCCCCCCCCCCCCCCCCCCCCOC(=O)NC(CCC(=O)O)(CCC(=O)O)CCC(=O)O	-	ATCC 927	-	MIC	-	Mycobacterium marinum	9 µg/mL
Cc1nc2ccc(Br)cn2c1C(=O)NCc1ccc(N2CCN(c3ccc(OC(F)(F)F)cc3)[C@@H](C)C2)c(F)c1	fluorescence	-	-	inhibition	0.0045 µM	Mycobacterium avium	85%
CCCCCCCCCCCCC(=O)O[C@H]1[C@H](C)[C@@H](O[C@@H]2O[C@H](C)C[C@H](N(C)C)[C@H]2O)C(C)(O)C[C@@H](C)/C(=N\OCCCOc2ccccc2)[C@H](C)[C@@H](O)[C@](C)(O)[C@@H](CC)OC(=O)[C@@H]1C	-	20092 (clarithromycin-resistant)	-	MIC	-	Mycobacterium avium complex	>50 µg/mL
Cc1nc2ccccn2c1C(=O)NCN1CCN(C(=O)c2ccccc2Cl)CC1	fluorescence	-	-	MIC50	-	Mycobacterium ulcerans	>10 µg/mL
CCCCCCCCCCCCC(=O)O[C@H]1[C@H](C)OC(O[C@H]2[C@H](C)[C@@H](O[C@@H]3O[C@H](C)C[C@H](N(C)C)[C@H]3O)C(C)(O)C[C@@H](C)/C(=N\OCCCOc3ccccc3)[C@H](C)[C@@H](O)[C@](C)(O)[C@@H](CC)OC(=O)[C@@H]2C)C[C@@]1(C)OC	-	20096 (clarithromycin-resistant)	-	MIC	-	Mycobacterium avium complex	>50 µg/mL
CCc1nc2cc(F)ccn2c1C(=O)NCc1ccc(N2CCN(c3ccc(OC(F)(F)F)cc3)[C@@H](C)C2)c(F)c1	fluorescence	-	-	inhibition	0.0013 µM	Mycobacterium avium	85%
S=c1oc2ccc(Br)cc2c(=S)n1-c1ccccc1	-	6509/96	14 d	MIC	-	Mycobacterium kansasii	2 µM
CO[C@@]1(NC(=O)C(C(=O)O)c2ccc(O)cc2)C(=O)N2C(C(=O)O)=C(CSc3nnnn3C)CO[C@@H]21	-	AO5	-	MIC	-	Mycobacterium fortuitum	50 µg/mL
CC[C@H]1OC(=O)[C@H](C)[C@@H](OC2C[C@@](C)(OC)[C@@H](OC(C)=O)[C@H](C)O2)[C@H](C)[C@@H](O[C@@H]2O[C@H](C)C[C@H](N(C)C)[C@H]2O)C(C)(O)C[C@@H](C)/C(=N\OCCCOc2ccccc2)[C@H](C)[C@@H](O)[C@]1(C)O	-	20092 (clarithromycin-resistant)	-	MIC	-	Mycobacterium avium complex	0.78 µg/mL
CN(C)c1ccc(CNC(=O)c2c(Cl)nc3ccccn23)cc1	fluorescence	-	-	MIC50	-	Mycobacterium ulcerans	0.1–1 µg/mL
Cc1ccn2c(C(=O)NCc3ccc(N4CCN(c5ccc(C(F)(F)F)cn5)CC4)c(C(F)(F)F)c3)c(C)nc2c1	fluorescence	-	-	inhibition	0.35 µM	Mycobacterium avium	85%
O=c1oc2ccc(F)cc2c(=S)n1-c1cccc(F)c1	-	6509/96	21 d	MIC	-	Mycobacterium kansasii	16 µM
CO[C@H]1/C=C/O[C@@]2(C)Oc3c(C)c(O)c4c(O)c(c5c(c4c3C2=O)NC2(CCN(CC(C)C)CC2)N=5)=NC(=O)/C(C)=C\C=C\[C@H](C)[C@H](O)[C@@H](C)[C@@H](O)[C@@H](C)[C@H](OC(C)=O)[C@@H]1C	-	N-978 (HIV+)	-	MIC	-	Mycobacterium avium complex	0.25 µg/mL
CO[C@@]1(NC(=O)C2SC(=C(C(N)=O)C(=O)[O-])S2)C(=O)N2C(C(=O)[O-])=C(CSc3nnnn3C)CS[C@@H]21	-	1263	-	MIC	-	Mycobacterium fortuitum	50 µg/mL
CC[C@H]1OC(=O)[C@H](C)[C@@H](O[C@H]2C[C@@](C)(OC)[C@@H](OC(C)=O)[C@H](C)O2)[C@H](C)[C@@H](O[C@@H]2O[C@H](C)C[C@H](N(C)C)[C@H]2OC(=O)NNCCCc2ccccc2)C(C)(O)C[C@@H](C)/C(=N\OCCCC2CCCCC2)[C@H](C)[C@@H](O)[C@]1(C)O	-	20096 (clarithromycin-resistant)	-	MIC	-	Mycobacterium avium complex	1.56 µg/mL
CC(C)(C)c1ccc(NC(=O)NNC(=O)c2ccncc2)cc1	broth dilution	My 235/80	14 d	MIC100	-	Mycobacterium kansasii	62.5 µM
CC[C@H]1OC(=O)[C@H](C)[C@@H](O[C@H]2C[C@@](C)(OC)[C@@H](OC(C)=O)[C@H](C)O2)[C@H](C)[C@@H](O[C@@H]2O[C@H](C)C[C@H](N(C)C)[C@H]2O)C(C)(O)C[C@@H](C)/C(=N\OCCOc2ccccc2)[C@H](C)[C@@H](O)[C@]1(C)O	-	20039 (clarithromycin-susceptible)	-	MIC	-	Mycobacterium avium complex	1.56 µg/mL
NNC(=O)c1ccncc1	broth dilution	My 235/80	21 d	MIC100	-	Mycobacterium kansasii	>250 µM
CO[C@@]1(NC(=O)CCCC(N)C(=O)O)C(=O)N2C(C(=O)O)=C(COC(N)=O)CSC21	-	AO5	-	MIC	-	Mycobacterium fortuitum	>100 µg/mL
CCCCCCCCCCCCCCCCCCCOC(=O)NC(CCC(=O)O)(CCC(=O)O)CCC(=O)O	-	AAy-P-1	-	MIC	-	Mycobacterium abscessus	18 µg/mL
CC[C@H]1OC(=O)[C@H](C)[C@@H](O[C@H]2C[C@@](C)(OC)[C@@H](OC(C)=O)[C@H](C)O2)[C@H](C)[C@@H](O[C@@H]2O[C@H](C)C[C@H](N(C)C)[C@H]2OC(=O)NNCCCCc2ccccc2)C(C)(O)C[C@@H](C)/C(=N\OCCCC2CCCCC2)[C@H](C)[C@@H](O)[C@]1(C)O	-	20092 (clarithromycin-resistant)	-	MIC	-	Mycobacterium avium complex	3.13 µg/mL
CC1(C)N=C(N)N=C(N)N1OCCCOc1cc(Cl)c(Cl)cc1Cl	-	W7547	-	MIC	-	Mycobacterium avium complex	2 µg/mL
CCCCCCCCc1ccc(NC(=O)NNC(=O)c2ccncc2)cc1	broth dilution	My 235/80	7 d	MIC100	-	Mycobacterium kansasii	250 µM
CO[C@@]1(NC(=O)Cn2cnnn2)C(=O)N2C(C(=O)O)=C(CSc3nnc(C)s3)CSC21	-	4-May	-	MIC	-	Mycobacterium fortuitum	50 µg/mL
CO[C@H]1/C=C/O[C@@]2(C)Oc3c(C)c(O)c4c(=O)c(c5oc6cc(N7CCN(CC(C)C)CC7)cc(=O)c6nc5c4c3=C2O)NC(=O)/C(C)=C\C=C\[C@H](C)[C@H](O)[C@@H](C)[C@@H](O)[C@@H](C)[C@H](OC(C)=O)[C@@H]1C	-	N-499 (HIV-)	-	MIC	-	Mycobacterium avium intracellulare	≤0.0125 µg/mL
O=C(NNC(=O)c1ccncc1)Nc1ccc(C(F)(F)F)cc1	broth dilution	My 6509/96	14 d	MIC100	-	Mycobacterium kansasii	125 µM

The first 6 rows once more:

compound	method	strain	conditions	endpoint	dose	species	result
Cc1ccc2nc(C)c(C(=O)NCc3ccc(-c4ccccc4)cc3)n2c1	fluorescence	-	-	MIC50	-	Mycobacterium ulcerans	0.001–0.01 µg/mL
CCCCCCCCCCCCC(CCCCCCCCCCCC)NC(=O)NC(CCC(=O)O)(CCC(=O)O)CCC(=O)O	-	AAy-P-1	-	MIC	-	Mycobacterium abscessus	72 µg/mL
CO[C@H]1/C=C/O[C@@]2(C)Oc3c(C)c(O)c4c(O)c(c(/C=N/N5CCN(C6CCCC6)CC5)c(O)c4c3C2=O)NC(=O)/C(C)=C\C=C\[C@H](C)[C@H](O)[C@@H](C)[C@@H](O)[C@@H](C)[C@H](OC(C)=O)[C@@H]1C	-	953	-	MIC	-	Mycobacterium avium intracellulare	1 µg/mL
Nc1ccc(S(=O)(=O)c2ccc(N)cc2)cc1	-	DW27	-	MIC	-	Mycobacterium avium complex	64 µg/mL
Fc1cc(Br)ccc1Nc1nnc(-c2ccncc2)o1	broth dilution	My 235/80	7 d	MIC100	-	Mycobacterium kansasii	>125 µM
COc1ccc2oc(=O)n(-c3ccc(Br)cc3)c(=S)c2c1	-	My 235/80	21 d	MIC	-	Mycobacterium kansasii	32 µM